Measured values from several laboratories, pooled; numbers as filed in NIAID ChemDB.

All rows: growth or infection tests; agent: Herpes simplex virus 1; read-out: EC50

ECn: concentration that inhibits the pathogen or its effect by n%.

compound	strain	cell line	method	result
CCN(CC)CC(O)CNc1c2ccc(Cl)cc2nc2ccc(OC)cc12	-	VERO 76	plaque count	>7 µM
CCCCCCCC/C=C\CCCCCCCCCCCC(=O)O	KOS	HeLa	cytopathic effect	>200 µg/mL
COc1ccc2nc3cc(Cl)ccc3c(NCCC[C@@H]3CCCN4CCCC[C@H]34)c2c1	-	VERO 76	plaque count	>3 µM
Nc1ccccc1O[C@@H]1O[C@H](C(=O)O)[C@@H](O)[C@H](O)[C@H]1O	KOS	HeLa	cytopathic effect	>200 µg/mL
Nc1ncnc2c1ncn2C[C@@H](CO)OCP(=O)(O)O	KOS	U138-MG	cytopathic effect	1.38 µg/mL
Nc1ncnc2c1ncn2C[C@@H](CO)OCP(=O)(O)O	KOS PMEA-resistant	HEL	cytopathic effect	0.06 µg/mL
CC(C)CC1NC(=O)C(NC(=O)c2ncccc2O)C(C)OC(=O)C(c2ccccc2)N(C)C(=O)C(C)NC(=O)C(C(C)C(C)C)N(C)C(=O)CN(C)C(=O)C2CC(O)CN2C1=O	KOS	HeLa	cytopathic effect	>200 µg/mL
COc1ccc2nc3cc(Cl)ccc3c(NN3CCN(C)CC3)c2c1	-	VERO 76	plaque count	>10 µM
O=C(O)P(=O)(O)O	KOS PMEDAP-resistant	HEL	cytopathic effect	106.3 µg/mL
C=C[C@H]1CN2CC[C@H]1C[C@H]2[C@H](O)c1ccnc2ccc(OC)cc12	KOS	HeLa	cytopathic effect	>200 µg/mL
Nc1nc(N)c2ncn(CCOCP(=O)(O)O)c2n1	KOS ACV-resistant	HEL	cytopathic effect	5.7 µg/mL
COc1ccc2nc3cc(Cl)ccc3c(NCCN3CCOCC3)c2c1	-	VERO 76	plaque count	>12 µM
COc1cc2c(c3c1c(=O)c1ccccc1n3C)C=CC(C)(C)O2	KOS	HeLa	cytopathic effect	>200 µg/mL
Nc1ncc2c(ncn2COC(CO)CO)n1	KOS HPMPC-resistant	HEL	cytopathic effect	0.26 µg/mL
Nc1ncnc2c1ncn2[C@@H]1O[C@H](CO)C[C@@H]1O	B2006 (TK-)	-	cytopathic effect	5.6 µg/mL

The last 2 rows once more:

Nc1ncc2c(ncn2COC(CO)CO)n1 ; strain: KOS HPMPC-resistant ; cell line: HEL ; method: cytopathic effect ; result: 0.26 µg/mL
Nc1ncnc2c1ncn2[C@@H]1O[C@H](CO)C[C@@H]1O ; strain: B2006 (TK-) ; method: cytopathic effect ; result: 5.6 µg/mL

Conditions beyond the fields shown may differ between rows. Blank or dashed fields: not listed here.